Anti-infective test results gathered from many reports (values: NIAID ChemDB through PubChem).

Common to all: growth or infection tests; agent: HIV-1; read by: syncytia; endpoint: EC50

Neighbouring rows are from separate reports. Blank or dashed fields: not listed here. ECn: concentration that inhibits the pathogen or its effect by n%.

compound	strain or isolate	mutations	cell line	value
Cc1cn([C@H]2C[C@H](N=[N+]=[N-])[C@@H](CO)O2)c(=O)[nH]c1=O	G704-2 Clinical isolate ZDV-resistant	RT-M41L D67N K70R L210W T215Y	HT4 + HeLa	5.7 µM
O=c1[nH]cnc2c1ncn2[C@H]1CC[C@@H](CO)O1	U455	-	U-937	11.6 µM
CC(C)Nc1cccnc1N1CCN(C(=O)c2cc3cc(NS(C)(=O)=O)ccc3[nH]2)CC1	IIIB	RT-L100I	CEM	0.46 µg/mL
CCOCn1c(Cc2cc(C)cc(C)c2)c(CC)c(=O)[nH]c1=O	IIIB TIBO R82913 STR-B02 (RT L100I E138K)	RT-L100I E138K	CEM	0.1 µM
CCOCn1c(Cc2cc(C)cc(C)c2)c(CC)c(=O)[nH]c1=O	IIIB	-	CEM	0.003 µg/mL
Cc1ccnc2c1NC(=O)c1cccnc1N2C1CC1	IIIB	RT-K103N	CEM	1.8 µg/mL
CC(C)Nc1cccnc1N1CCN(C(=O)c2cc3ccccc3[nH]2)CC1	TIBO-2(RT-K103N)	RT-K103N	CEM	3.7 µM
O=C1N(Cc2ccccc2)c2cscc2S(=O)(=O)N1Cc1ccccc1	-	RT-Y181C	CEM	>10.4 µM
Nc1ncnc2c1ncn2CC(CF)OCP(=O)(O)O	IIIB TIBO R82150-resistant (RT L100I)	RT-L100I	CEM	2 µM
Nc1ncc2ncn([C@H]3CC[C@@H](CO)O3)c2n1	IIIB	-	C8166	40 µM
O=c1[nH]cnc2c1ncn2[C@H]1CC[C@@H](CO)O1	IIIB-TIBO(0.1)	-	CEM	9 µM
CC(C)=CCN1Cc2cc(Cl)cc3[nH]c(=S)n(c23)C[C@@H]1C	TSAO(RT-E138K)	RT-E138K	CEM	0.94 µM
CCc1c(Sc2ccccc2)n(COCc2ccccc2)c(=O)[nH]c1=O	IIIB	RT-Y181C	CEM	0.3 µM
Cc1occc1C(=S)Nc1ccc(Cl)c(C(=O)OC2CCCC2)c1	IIIB	RT-L100I	CEM	0.17 µg/mL
Cc1ccnc2c1NC(=O)c1cccnc1N2C1CC1	IIIB PYR(RT-Y181C)	RT-Y181C	CEM	2.5 µg/mL
O=c1[nH]cnc2c1ncn2[C@H]1CC[C@@H](CO)O1	IIIB	-	MOLT-4/C8 + MOLT-4	10 µM
Cc1cn([C@H]2C[C@H](N=[N+]=[N-])[C@@H](CO)O2)c(=O)[nH]c1=O	IIIB	-	CEM	0.002 µg/mL
Nc1ncnc2c1ncn2CCOCP(=O)(O)O	HE	-	CEM	17 µM
Cc1cn([C@@H]2O[C@H](CO[Si](C)(C)C(C)(C)C)C3(OS(=O)(=O)C=C3N)[C@H]2O[Si](C)(C)C(C)(C)C)c(=O)n(C)c1=O	IIIB	RT-V106A	CEM	2.2 µg/mL
CCOCn1c(Cc2cc(C)cc(C)c2)c(CC)c(=O)[nH]c1=O	IIIB	-	CEM	0.009 µM
N#CCN1C(=O)N(Cc2ccccc2)S(=O)(=O)c2cscc21	-	RT-L100I	CEM	7.8 µM
CCn1c(=O)c(C)cn([C@@H]2O[C@H](CO[Si](C)(C)C(C)(C)C)C3(OS(=O)(=O)C=C3N)[C@H]2O[Si](C)(C)C(C)(C)C)c1=O	IIIB TIBO R82913-resistant (RT K103N)	RT-K103N	CEM	0.23 µg/mL
Cc1cn([C@@H]2O[C@H](CO[Si](C)(C)C(C)(C)C)C3(OS(=O)(=O)C=C3N)[C@H]2O[Si](C)(C)C(C)(C)C)c(=O)n(C)c1=O	IIIB TIBO R82913 STR-2 (RT K103N)	RT-K103N	CEM	0.12 µM
O=C(O)P(=O)(O)O	LAI viral clone (RT-Q161L H208Y)	RT-Q161L H208Y	HT4LACZ-1 + HT4 LacZ-1	336 µM
Cc1ccnc2c1NC(=O)c1cccnc1N2C1CC1	IIIB	RT-E138K	CEM	0.08 µM
CC(C)Nc1cccnc1N1CCN(C(=O)c2cc3cc(NS(C)(=O)=O)ccc3[nH]2)CC1	IIIB	RT-E138K	CEM	0.033 ± 0.011 µM
Nc1ccn([C@H]2CC[C@@H](CO)O2)c(=O)n1	IIIB TIBO R82913 STR-B02 (RT L100I E138K)	RT-L100I E138K	CEM	0.015 µM
C[C@H](Cn1cnc2c(N)ncnc21)OCP(=O)(O)O	IIIB	-	CEM	4.2 µM
Nc1ncnc2c1ncn2CCOCP(=O)(O)O	IIIB-TSAO-m3T(10)(RT-Y181C)	RT-Y181C	CEM	6 µM
Cc1occc1C(=S)Nc1ccc(Cl)c(/C=N/OC(C)(C)C)c1	IIIB	RT-L100I	CEM	0.085 µg/mL
Nc1ccn([C@H]2CC[C@@H](CO)O2)c(=O)n1	IIIB-TSAO-m3T(10)(RT-Y181C)	RT-Y181C	CEM	0.02 µM
Cc1occc1C(=S)Nc1ccc(Cl)c(/C=N/OC(C)(C)C)c1	IIIB	-	CEM	0.011 ± 0.008 µM
CCN1C(=O)N(Cc2cccc(Cl)c2)S(=O)(=O)c2cscc21	-	RT-Y188H	CEM	≥11.2 µM
COC(=O)[C@H](C)NP(=O)(OC[C@@H]1CC[C@H](n2cnc3c(N)ncnc32)O1)Oc1ccccc1	IIIB	-	MT-4	0.01 µM
CCOCn1c(Sc2ccccc2)c(CC)c(=O)[nH]c1=S	IIIB E-EBU(RT-Y181C)	RT-Y181C	CEM	≥20 µg/mL
CCOCn1c(Sc2ccccc2)c(CC)c(=O)[nH]c1=S	IIIB	-	CEM	0.012 µM
CC(C)=CCOc1cc(NC(=S)c2ccoc2C)ccc1Cl	IIIB	RT-E138K	CEM	0.0065 ± 0.0021 µM
Cc1cn([C@@H]2O[C@H](CO[Si](C)(C)C(C)(C)C)[C@@]3(OS(=O)(=O)C=C3N)[C@H]2O[Si](C)(C)C(C)(C)C)c(=O)[nH]c1=O	IIIB TIBO R82150-resistant (RT L100I)	RT-L100I	CEM	0.21 µM
CCc1cc(NCc2nc3c(Cl)ccc(Cl)c3o2)c(=O)[nH]c1C	Pyr/BHAP(RT-Y181I)	RT-Y181I	CEM	>30 µM
Cc1ccnc2c1NC(=O)c1cccnc1N2C1CC1	IIIB	-	MT-4	0.03 µM
O=c1[nH]cnc2c1ncn2[C@H]1CC[C@@H](CO)O1	IIIB	RT-L100I	CEM	4.83 ± 2.02 µM
CCOCn1c(Sc2ccccc2)c(CC)c(=O)[nH]c1=O	IIIB TIBO R82913-resistant (RT K103N)	RT-K103N	CEM	0.63 µg/mL
CCc1cc(NCc2nc3c(Cl)ccc(Cl)c3o2)c(=O)[nH]c1C	IIIB-Pyridinone(0.1)(RT-V179N	RT-V179N	CEM	0.2 µg/mL
Cc1cn([C@@H]2O[C@H](CO[Si](C)(C)C(C)(C)C)C3(OS(=O)(=O)C=C3N)[C@H]2O[Si](C)(C)C(C)(C)C)c(=O)n(C)c1=O	HEPT (RT Y188H)	RT-Y188H	CEM	75 µM
CCn1c(=O)c(C)cn([C@@H]2O[C@H](CO[Si](C)(C)C(C)(C)C)C3(OS(=O)(=O)C=C3N)[C@H]2O[Si](C)(C)C(C)(C)C)c1=O	IIIB	-	CEM	0.09 µM
C[C@H](Cn1cnc2c(N)ncnc21)OCP(=O)(O)O	IIIB	RT-E103K	CEM	1.2 µg/mL